Pooled drug test results. Numbers come from NIAID ChemDB, via PubChem.

Shared fields: tests in culture; organism: Candida albicans; measure: MIC90

Blank or dashed fields: not listed here. Rows are shuffled and stem from different studies. MIC50, MIC90 and the like: level of inhibition, or share of isolates inhibited.

structure | strain or isolate | read by | value
C=C1C[C@H](N)[C@H](C(=O)O)C1 | 69 clinical isolates | - | 32 µg/mL
COc1cc(O)c2c(c1)C(=O)c1c(cc3c(c1O)-c1c(cc(C)c(C(=O)NC(CO)C(=O)O)c1O)[C@H](OC1OC(C)C(O)C(OC4OCC(O)C(O)C4O)C1O)C3O)C2=O | 34 isolates | - | 8 µg/mL
CC[C@@H]([C@H](C)O)n1ncn(-c2ccc(N3CCN(c4ccc(OC[C@@H]5CO[C@@](Cn6cncn6)(c6ccc(F)cc6F)C5)cc4)CC3)cc2)c1=O | - | - | 0.063 µg/mL
CCCCCOc1ccc(-c2ccc(-c3ccc(C(=O)N[C@H]4C[C@@H](O)[C@@H](O)NC(=O)[C@@H]5[C@@H](O)[C@@H](C)CN5C(=O)[C@H]([C@H](C)O)NC(=O)[C@H]([C@H](O)[C@@H](O)c5ccc(O)cc5)NC(=O)[C@@H]5C[C@@H](O)CN5C(=O)[C@H]([C@H](C)O)NC4=O)cc3)cc2)cc1 | 15 strains | - | 0.5 µg/mL
CC(C)C(N)CCC(C)C1CC[C@@]2(C)C3=C(CCC12C)C1(C)CC[C@H](O)C(C)(C)C1CC3 | A.10231 | - | 100 µg/mL
CCCCCOc1ccc(-c2cc(-c3ccc(C(=O)N[C@H]4C[C@@H](O)[C@@H](O)NC(=O)[C@@H]5[C@@H](O)[C@@H](C)CN5C(=O)[C@H]([C@H](O)CC(N)=O)NC(=O)[C@H]([C@H](O)[C@@H](O)c5ccc(O)c(OS(=O)(=O)O)c5)NC(=O)[C@@H]5C[C@@H](O)CN5C(=O)[C@H]([C@@H](C)O)NC4=O)cc3)no2)cc1 | - | broth dilution | 0.016 µg/mL
C=CCc1ccc(OC)c(OC)c1 | 2784 | turbidity | 340 µg/mL
C[C@@H](c1ncncc1F)[C@](O)(Cn1cncn1)c1ccc(F)cc1F | - | - | 0.063 µg/mL
CC(C)C(CCC(C)C1CC[C@@]2(C)C3=C(CCC12C)C1(C)CC[C@H](O)C(C)(C)C1CC3)N=[N+]=[N-] | A.10231 | - | 100 µg/mL
Cc1c2n(c3ccccc13)CCNC2c1ccc(Br)cc1 | - | - | 62.5 µg/mL
Clc1cccc(C(c2nccc3ccccc23)n2ccnc2)c1.O=[N+]([O-])O | 44 strains | - | 256 µg/mL
CCC(C)n1ncn(-c2ccc(N3CCN(c4ccc(OC[C@H]5CO[C@](Cn6cncn6)(c6ccc(Cl)cc6Cl)O5)cc4)CC3)cc2)c1=O | - | broth dilution | 0.016 µg/mL
CCC(C)n1ncn(-c2ccc(N3CCN(c4ccc(OC[C@H]5CO[C@](Cn6cncn6)(c6ccc(Cl)cc6Cl)O5)cc4)CC3)cc2)c1=O | TIMM3315 (azole-resistant) | - | >51 µg/mL
CC[C@@H]([C@H](C)O)n1ncn(-c2ccc(N3CCN(c4ccc(OC[C@@H]5CO[C@@](Cn6cncn6)(c6ccc(F)cc6F)C5)cc4)CC3)cc2)c1=O | 10 strains (fluconazole- itraconazole-susceptible) | - | <0.03 µg/mL
C[C@H]1[C@H](O)[C@@H](C)/C=C/C=C/C=C/C=C/C=C/C=C/C=C/[C@H](O[C@@H]2O[C@H](C)[C@@H](O)[C@H](N)[C@@H]2O)C[C@@H]2O[C@](O)(C[C@@H](O)C[C@@H](O)CC[C@H](O)[C@@H](O)C[C@@H](O)CC(=O)O[C@H]1C)C[C@H](O)[C@H]2C(=O)O | 97 isolates | - | 1 µg/mL
Cc1c2n(c3ccccc13)CCNC2c1ccccc1 | - | - | 125 µg/mL
Clc1ccc(COc2ccc(C(c3ccc(-c4ccccc4)cc3)n3ccnc3)cc2)cc1.O=[N+]([O-])O | 16 strains | - | ≥256 µg/mL
CC(C)C(N)CCC(C)C1CCC2C3CC=C4C[C@@H](O)CCC4(C)C3CCC12C | A.10231 | - | 0.78 µg/mL
Cc1c2n(c3ccccc13)CCNC2c1ccc(Cl)cc1 | - | - | 15.62 µg/mL
Clc1ccc(COc2ccc(C(c3ccc(-c4ccccc4)cc3)n3ccnc3)cc2)c(Cl)c1.O=[N+]([O-])O | 16 strains | - | ≥256 µg/mL
C[C@H]1[C@H](O)[C@@H](C)/C=C/C=C/C=C/C=C/C=C/C=C/C=C/[C@H](O[C@@H]2O[C@H](C)[C@@H](O)[C@H](N)[C@@H]2O)C[C@@H]2O[C@](O)(C[C@@H](O)C[C@@H](O)CC[C@H](O)[C@@H](O)C[C@@H](O)CC(=O)O[C@H]1C)C[C@H](O)[C@H]2C(=O)O | 37 isolates | - | 0.5 µg/mL
C[C@H]1[C@H](O)[C@@H](C)/C=C/C=C/C=C/C=C/C=C/C=C/C=C/[C@H](O[C@@H]2O[C@H](C)[C@@H](O)[C@H](N)[C@@H]2O)C[C@@H]2O[C@](O)(C[C@@H](O)C[C@@H](O)CC[C@H](O)[C@@H](O)C[C@@H](O)CC(=O)O[C@H]1C)C[C@H](O)[C@H]2C(=O)O | 34 isolates | - | 0.5 µg/mL
CC(C)C(CCC(C)C1CCC2C3CC=C4C[C@@H](O)CCC4(C)C3CCC12C)NS(=O)(=O)O | A.10231 | - | 3.13 µg/mL
Fc1ccccc1COc1ccc(C(c2cccc3ccccc23)n2ccnc2)cc1.O=[N+]([O-])O | 16 strains | - | ≥256 µg/mL
OC(Cn1cncn1)(Cn1cncn1)c1ccc(F)cc1F | 2453 strains | - | 0.5 µg/mL
Cc1c2n(c3ccccc13)CCNC2c1ccccn1 | - | - | 125 µg/mL
Clc1ccc(COc2ccc(C(c3cccc4ccccc34)n3ccnc3)cc2)cc1.O=[N+]([O-])O | 16 strains | - | ≥256 µg/mL

A second listing of 3 rows from above:

Clc1cccc(C(c2nccc3ccccc23)n2ccnc2)c1.O=[N+]([O-])O ; strain or isolate: 44 strains ; value: 256 µg/mL
CC[C@@H]([C@H](C)O)n1ncn(-c2ccc(N3CCN(c4ccc(OC[C@@H]5CO[C@@](Cn6cncn6)(c6ccc(F)cc6F)C5)cc4)CC3)cc2)c1=O ; strain or isolate: 10 strains (fluconazole- itraconazole-susceptible) ; value: <0.03 µg/mL
C[C@@H](c1ncncc1F)[C@](O)(Cn1cncn1)c1ccc(F)cc1F ; value: 0.063 µg/mL